Reference: publication PMC3219715

Columns and labels:
IRF2 [1] = target: T1, IRF2 (UniProt P23906); test: competition with a labelled probe; details: excess unlabeled M2 ISRE inhibits complex formation on labeled M2 ISRE; 40 mM KCl, 20 mM HEPES pH 7.6, 1 mM MgCl2, 1 mM EGTA, 0.5 mM DTT, 0.32 mg/ml poly dI-dC, 0.02 mg/ml plasmid pGL4.10, 4 mM AMP, 5 ug extract in 12.5 ul; protein in an extract; label: 32P (unlabeled as competitor)
T1 sequence (looked up, limits assumed): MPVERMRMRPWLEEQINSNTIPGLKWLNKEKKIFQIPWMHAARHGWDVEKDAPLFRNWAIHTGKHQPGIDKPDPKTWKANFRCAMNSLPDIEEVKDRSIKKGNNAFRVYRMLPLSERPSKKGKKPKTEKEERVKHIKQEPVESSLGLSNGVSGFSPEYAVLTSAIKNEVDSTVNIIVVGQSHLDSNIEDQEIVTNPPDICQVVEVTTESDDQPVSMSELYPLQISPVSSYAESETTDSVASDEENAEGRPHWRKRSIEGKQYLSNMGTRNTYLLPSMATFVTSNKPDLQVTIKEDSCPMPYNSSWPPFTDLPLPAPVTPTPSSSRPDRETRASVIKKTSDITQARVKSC

IRF2 [2] = target: T1, IRF2; test: EMSA supershift; details: two anti-IRF2 antisera, complex not formed with IRF2-/- extract; 40 mM KCl, 20 mM HEPES pH 7.6, 1 mM MgCl2, 1 mM EGTA, 0.5 mM DTT, 0.32 mg/ml poly dI-dC, 0.02 mg/ml plasmid pGL4.10, 4 mM AMP, 5 ug extract in 12.5 ul; protein in an extract; label: 32P (unlabeled as competitor)

## TTACCTGAAAACGAAACCTCATCA (double strand) [M2 ISRE]
IRF2 [1]
  binding result: binds
IRF2 [2]
  binding result: binds

For at least one entry, the source does not settle the construct or the ends of the probe. Where cells or extracts were used, other partners may take part. For some assays here: At least one verdict was read from the data and is not stated in words by the source. Protein sequences can lack the tags named with them.
